# Test results taken from paper PMC11003968 (Scientific Reports, 2024).
# Target: IsdB Y165A, site-directed mutant of Staphylococcus aureus IsdB (Staphylococcus aureus, UniProt Q2FZF0 41-613, Y165A)
# Test: ELISA
# Conditions: both partners purified
binder,measurement,value
Human hemoglobin A (oxyhemoglobin) (complex) chain 1: not shown chain 2: not shown,Kd,84 ± 11 µM
